Columns and labels:
[1] = molecular target: Y1G2 peptide (XGVECK-biotin with X = Tyr); assay: SPR; KD for the Tyr peptide divided by KD for the Trp peptide
[2] = molecular target: W1G2 peptide (XGVECK-biotin with X = Trp); assay: SPR; KD for the Trp peptide divided by KD for the Trp peptide
[3] = molecular target: F1G2 peptide (XGVECK-biotin with X = Phe); assay: SPR; KD for the Phe peptide divided by KD for the Phe peptide
[4] = molecular target: W1G2 peptide (XGVECK-biotin with X = Trp); assay: SPR dissociation curves; biotinylated peptide on streptavidin chip
[5] = molecular target: F1G2 peptide (XGVECK-biotin with X = Phe); assay: as above
[6] = molecular target: Y1G2 peptide (XGVECK-biotin with X = Tyr); assay: as above
[7] = molecular target: F1G2 peptide (XGVECK-biotin with X = Phe); assay: SPR; KD for the Phe peptide divided by KD for the Trp peptide
[8] = molecular target: Y1G2 peptide (XGVECK-biotin with X = Tyr); assay: SPR; KD for the Tyr peptide divided by KD for the Phe peptide
[9] = molecular target: Y1G2 peptide (XGVECK-biotin with X = Tyr); assay: SPR; KD for the Tyr peptide divided by KD for the Tyr peptide
[10] = molecular target: W1G2 peptide (XGVECK-biotin with X = Trp); assay: SPR; KD for the Trp peptide divided by KD for the Phe peptide
[11] = molecular target: W1G2 peptide (XGVECK-biotin with X = Trp); assay: SPR; KD for the Trp peptide divided by KD for the Tyr peptide
[12] = molecular target: F1G2 peptide (XGVECK-biotin with X = Phe); assay: SPR; KD for the Phe peptide divided by KD for the Tyr peptide
[13] = molecular target: F1G2 peptide (XGVECK-biotin with X = Phe); assay: in vitro surface binding assays (SPR)
[14] = molecular target: W1G2 peptide (XGVECK-biotin with X = Trp)
[15] = molecular target: F1G2 peptide (XGVECK-biotin with X = Phe)
[16] = molecular target: Y1G2 peptide (XGVECK-biotin with X = Tyr)
[17] = molecular target: F1G2 peptide (XGVECK-biotin with X = Phe); assay: SPR dissociation curves
[18] = molecular target: W1G2 peptide (XGVECK-biotin with X = Trp); assay: SPR dissociation curves

Binder | Selectivity for Tyr, Tyr/Trp [1] | Selectivity for Trp, Trp/Trp [2] | Selectivity for Phe, Phe/Phe [3] | koff [4] | koff [5] | koff [6] | Selectivity for Phe, Phe/Trp [7] | Selectivity for Tyr, Tyr/Phe [8] | Selectivity for Tyr, Tyr/Tyr [9] | Selectivity for Trp, Trp/Phe [10] | Selectivity for Trp, Trp/Tyr [11] | Selectivity for Phe, Phe/Tyr [12] | fold tighter binding relative to wild-type ClpS [13] | Kd [14] | Kd [15] | Kd [16] | fold slowing of the dissociation rate over the wild-type protein [17] | fold slowing of the dissociation rate over wild-type [18] | fold slowing of the dissociation rate over wild-type [17]
A. tumefaciens ClpS2 [Pro34 Met35 Ser36], expressed in and purified from E. coli (designed binder) MGHHHHHHENLYFQGSDSPVDLKPKPKVKPKLERPKLYKVMLLNDDYTPMSFVTVVLKAVFRMSEDTGRRVMMTAHRFGSAVVVVCERDIAETKAKEATDLGKEAGFPLMFTTEPEE | 0.88 | 1 | 1 | 0.76 s⁻¹ | 0.1 s⁻¹ | 0.5 s⁻¹ | 0.14 | 6.43 | 1 | 7.28 | 1.13 | 0.16 | 7 fold | 13.1 µM | 1.8 µM | 11.6 µM | 9.4 fold |  | 
A. tumefaciens ClpS2 [Cys34 Pro35 Ser36], expressed in and purified from E. coli (designed binder) MGHHHHHHENLYFQGSDSPVDLKPKPKVKPKLERPKLYKVMLLNDDYTCPSFVTVVLKAVFRMSEDTGRRVMMTAHRFGSAVVVVCERDIAETKAKEATDLGKEAGFPLMFTTEPEE | 12.9 | 1 | 1 | 0.03 s⁻¹ | 0.03 s⁻¹ | 0.05 s⁻¹ | 1.32 | 9.82 | 1 | 0.76 | 0.08 | 0.1 |  | 2.8 µM | 3.7 µM | 36.1 µM |  | 51.3 fold | 27.9 fold

Source: patent US20220315628A1
